Molecules are shown by their SMILES. Several values for one entry are separate records, joined by “and”; a condition that tells them apart may be missing. Equal values may be shown once.

The data set concerns M. tuberculosis 103471. Briefly: Antimycobacterial activity, MIC in Middlebrook 7H9 broth (NCCLS procedure). Format: cell-based. To be noted: MNTD50/MIC ratio, VERO cells vs M. tuberculosis 103471.
As to `Cc1c(CN2CCN(C)CC2)cc(-c2ccc(F)cc2F)n1-c1ccc(F)cc1` [Compound 6j], the “Protection Index (PI)” value was 2.
As to `Cc1c(CN2CCN(C)CC2)cc(-c2ccc(Cl)cc2)n1-c1ccc(Cl)cc1` [BM212, 1-{[1,5-bis(4-chlorophenyl)-2-methyl-1H-pyrrol-3-yl]methyl}-4-methylpiperazine], the “Protection Index (PI)” value was 5.7 and 5.6.
With `Cc1ccc(-n2c(-c3ccc(F)cc3)cc(CN3CCSCC3)c2C)cc1` [Compound 7e] the figure was 2; with `Cc1c(CN2CCN(C)CC2)cc(-c2ccc(F)cc2)n1-c1ccccc1Cl` [Compound 7b], 2.
With `Cc1c(CN2CCN(C)CC2)cc(-c2ccc(F)cc2)n1-c1ccccc1F` [Compound 7d] the figure was 1; with `NNC(=O)c1ccncc1` [Isoniazid, reference compound], 128; with `Cc1c(CN2CCSCC2)cc(-c2ccc(F)cc2F)n1-c1ccc(F)cc1` [Compound 6i], 32.
With `Cc1c(CN2CCN(C)CC2)cc(-c2ccc(F)cc2)n1-c1ccc(Cl)cc1Cl` [Compound 7h] the figure was 0.5; with `Cc1c(CN2CCSCC2)cc(-c2ccc(Cl)cc2Cl)n1-c1ccc(F)cc1` [Compound 6g], 32.
Regarding `[H]/N=C(/N)N[C@H]1[C@H](O)[C@@H](O)[C@H](O[C@@H]2O[C@@H](C)[C@](O)(C=O)[C@H]2O[C@@H]2O[C@@H](CO)[C@H](O)[C@@H](O)[C@@H]2NC)[C@@H](N/C(N)=N\[H])[C@@H]1O` [Streptomycin, reference compound], the “Protection Index (PI)” value stood at 128.
Consider `Cc1c(CN2CCN(C)CC2)cc(-c2ccc(F)cc2)n1-c1ccc(F)cc1F` [Compound 7j], for which the “Protection Index (PI)” value was found to be 1.
With `Cc1c(CN2CCN(C)CC2)cc(-c2ccc(F)cc2)n1-c1cccc2ccccc12` [Compound 7l] the figure was 1.
`Cc1c(CN2CCN(C)CC2)cc(-c2ccc(Cl)cc2Cl)n1-c1ccc(F)cc1` [Compound 6h]: the “Protection Index (PI)” value is listed as 2.
As for `Cc1ccc(-c2cc(CN3CCSCC3)c(C)n2-c2ccc(F)cc2)cc1` [Compound 6e, N-(p-fluorophenyl)-2-methyl-3-thiomorpholinomethyl-5-(p-methylphenyl)pyrrole], the “Protection Index (PI)” value worked out at 160.
Regarding `Cc1c(CN2CCSCC2)cc(-c2ccc(F)cc2)n1-c1ccccc1Cl` [Compound 7a], the “Protection Index (PI)” value worked out at 4.
On to `Cc1c(CN2CCSCC2)cc(-c2ccc(F)cc2)n1-c1ccc(Cl)cc1Cl` [Compound 7g], for which the “Protection Index (PI)” value came to 4.
With `Cc1c(CN2CCSCC2)cc(-c2ccc(F)cc2)n1-c1ccc(F)cc1F` [Compound 7i], the “Protection Index (PI)” value is listed as 8.
With `CO[C@H]1/C=C/O[C@@]2(C)Oc3c(C)c(O)c4c(O)c(c(/C=N/N5CCN(C)CC5)c(O)c4c3C2=O)NC(=O)/C(C)=C\C=C\[C@H](C)[C@H](O)[C@@H](C)[C@@H](O)[C@@H](C)[C@H](OC(C)=O)[C@@H]1C` [Rifampin, reference compound] the figure was 213; with `Cc1ccc(-n2c(-c3ccc(F)cc3)cc(CN3CCN(C)CC3)c2C)cc1` [Compound 7f], 0.5; with `Cc1c(CN2CCN(C)CC2)cc(-c2ccccc2Cl)n1-c1ccc(F)cc1` [Compound 6b], 0.25.
With `Cc1c(CN2CCSCC2)cc(-c2ccccc2Cl)n1-c1ccc(F)cc1` [Compound 6a] the figure was 1.
With `Cc1c(CN2CCN(C)CC2)cc(-c2ccccc2F)n1-c1ccc(F)cc1` [Compound 6d] the figure was 0.25; with `Cc1ccc(-c2cc(CN3CCN(C)CC3)c(C)n2-c2ccc(F)cc2)cc1` [Compound 6f], 2; with `Cc1c(CN2CCSCC2)cc(-c2ccc(F)cc2)n1-c1cccc2ccccc12` [Compound 7k], 0.5.
Regarding `Cc1c(CN2CCSCC2)cc(-c2ccccc2F)n1-c1ccc(F)cc1` [Compound 6c], the “Protection Index (PI)” value was 32.

These data come from patent US8012970B2, “Derivatives of 1-{[1,5-bis(4-chlorophenyl)-2-methyl-1H-pyrrol-3-yl]methyl}-4-methylpiperazine, synthesis process and uses thereof” (priority 2005, dated 2011).
